According to US7144551B2, “Mold remediation system and method” (DH Technologies, L.L.P., priority 2002, dated 2006):

Test system: mold and mold stains
Assay: Mold kill and mold stain removal study: vapor from acidified 6.0% NaOCl diluted in water, in a 1400 cc container
Type: cell-based
Details: gas versus liquid bleach
Description: First, the recommended concentration of HOCl for sanitization of surfaces according to the prior art is calculated. Referring to the label of Ultra Chlorox® brand of sodium hypochlorite and noticing that a recommended concentration of NaOCl for mold and mildew stain removal is 3⁄4 cup Ultra Chlorox® plus one gallon of water. Ultra Chlorox® contains 6.00% NaOCl per the label. […] For the mold remediation studies, 5 mL of 6.0% NaOCl was mixed with 50 mL of water, acidified and was placed in a container with a volume of 1400 cc. • 5 mL of 6.0% NaOCl=0.30 g NaOCl • Assuming all of the NaOCl is converted to HOCl: • 0.30 g NaOCl=(0.30 g NaOCl)(52.5 g HOCl)/(74.5 g NaOCl)=0.21 g HOCl This quantity of HOCl is diluted to 1400 cc. Therefore, the maximum concentration of HOCl gas in the container studied is: • 0.21 g HOCl/1400 cc=15×10^-5 g HOCl/cc […]

## OCl [hypochlorous acid]
  concentration needed for mold cidal activity and removal of mold stains as gas, times less than recommended for liquid hypochlorite bleach: at least 13 times
